A mixed list of measured activities; the numbers were collected in NIAID ChemDB.

All rows: enzyme or target tests

ICn is the concentration giving n% inhibition. An empty or dashed field is not shown. Conditions beyond the fields shown may differ between rows. Inhibition is in % at the dose shown (toxicity tests: loss of growth or viability). a–b is a range or a potency band.

compound | target | tested at | endpoint | organism | value
O=C(O)c1cnc2c(c1)nc(-c1ccc3nc(-c4cc(O)ccc4-c4ccc(Cl)cc4)ccc3c1)n2C1CCCCC1 | NS5B polymerase | 33 µM | inhibition | Hepatitis C virus | 101%
O=C(O)c1nc(-c2ccc(Br)cc2)[nH]c(=O)c1O | HCV polymerase |  | IC50 | Hepatitis C virus | <100 µM
CNC(=O)c1c(-c2ccc(F)cc2)oc2cc(N(C3CCC3)S(C)(=O)=O)c(OC(C)C)cc12 | Nonstructural protein 5B |  | IC50 | Hepatitis C virus | ≤0.5 µM
CCc1cc2cc(-c3cnc4c(C(=O)O)cnn4c3C3CCCCC3)ccc2o1 | RNA-dependent RNA polymerase |  | IC50 | Hepatitis C virus | 1–10 µM
Cc1ccc(C(=O)N(Cc2cccc(C(F)(F)F)c2)c2cc(-c3ccccc3)sc2C(=O)O)cc1 | NS3 ATPase |  | IC50 | Hepatitis C virus | <5 µM
O=C(O)c1cc2nc(-c3cccc(Cl)c3)cc(-c3ccc(OCc4ccccc4)cc3)n2n1 | RNA-dependent RNA polymerase |  | IC50 | Hepatitis C virus | 1–10 µM
O=C(O)c1ccc2c(c1)nc(-c1ccc3nc(-c4cccc(C(=O)N5CCCC5)c4)ccc3c1)n2C1CCCCC1 | NS5B polymerase | 100 µM | inhibition | Hepatitis C virus | 99.67%
O=C(Nc1ccsc1-c1nc(C(=O)O)c(O)c(=O)[nH]1)OCc1cc(Cl)ccc1Cl | HCV polymerase |  | IC50 | Hepatitis C virus | <25 µM
COCCNc1nc(Nc2ccc3[nH]ncc3c2)nc(OC)n1 | DNA polymerase | 0.1 µg/mL | inhibition | Hepatitis B virus | 56%
CCc1ccc(-c2ccc(OC)cc2-c2ccc3cc(-c4nc5cc(C(=O)O)ccc5n4C4CCCCC4)ccc3n2)cc1 | NS5B polymerase | 33 µM | inhibition | Hepatitis C virus | 103%
CC[C@@H](C=O)NC(=O)[C@@H]1C[C@@H](OCc2ccc(Cl)c(Cl)c2)CN1C(=O)[C@@H](NC(=O)[C@@H](NC(=O)c1cnccn1)C(C)C)C(C)C | NS3 protease |  | Ki | Hepatitis C virus | 1–100 µM
O=C(O)c1cnn2c(-c3ccccc3-c3cccc(Cl)c3)ccnc12 | RNA-dependent RNA polymerase |  | IC50 | Hepatitis C virus | >10 µM
NC(C(=O)Nc1ccsc1-c1nc(C(=O)O)c(O)c(=O)[nH]1)(c1ccccc1)c1ccccc1 | HCV polymerase |  | IC50 | Hepatitis C virus | <25 µM
COc1nc(NCCCN2CCOCC2)nc(Nc2ccc3[nH]ncc3c2)n1 | DNA polymerase |  | IC50 | Hepatitis B virus | 0.1–1 µg/mL
CC[C@H](NC(=O)[C@H](CC(C)C)NC(=O)[C@@H](NC(=O)[C@@H](NC(=O)[C@H](CC(=O)O)CC(=O)[C@H](CCC(=O)O)NC(C)=O)C(C)C)C(C)C)C(=O)C(=O)NCc1ccccc1 | NS3 protease |  | Ki | Hepatitis C virus | <1 µM
COc1ccc(-c2ccc(C)cc2)c(-c2ccc3cc(-c4nc5cc(C(=O)O)ccc5n4C4CCCCC4)ccc3n2)c1 | NS5B polymerase | 100 µM | inhibition | Hepatitis C virus | 99.6%
CNC(=O)c1c(-c2ccc(F)cc2)oc2ccc(OCc3cccc(C(=O)O)c3)cc12 | Nonstructural protein 5B |  | IC50 | Hepatitis C virus | ≤0.5 µM
CCC(C=O)NC(=O)C1[C@@H]2CC2CN1C(=O)[C@@H](NC(=O)[C@@H](NC(=O)[C@H](CC(=O)O)NC(=O)[C@H](CCC(=O)O)NC(C)=O)C(C)C)C(C)C | NS3 protease |  | Ki | Hepatitis C virus | <1 µM
O=C(O)c1cc2nc(-c3ccc(Cl)cc3)cc(NCc3ccccc3Cl)n2n1 | RNA-dependent RNA polymerase |  | IC50 | Hepatitis C virus | >10 µM
CC(C)CC(=O)N(Cc1ccc(F)cc1F)c1cc(-c2ccccc2)sc1C(=O)O | NS3 ATPase |  | IC50 | Hepatitis C virus | 5–20 µM
CNC(=O)c1c(-c2ccc(F)cc2)oc2cc(NC(C)C)c(OC(C)C)cc12 | Nonstructural protein 5B |  | IC50 | Hepatitis C virus | ≤0.5 µM
COc1cc(COc2cccc(-c3cnc4c(-c5nn[nH]n5)cnn4c3C3CCCCC3)c2)cc(OC)c1 | RNA-dependent RNA polymerase |  | IC50 | Hepatitis C virus | 1–10 µM
O=C(Nc1ccc(F)cc1)Nc1cccc(-c2nc(C(=O)O)c(O)c(=O)[nH]2)c1 | HCV polymerase |  | IC50 | Hepatitis C virus | <100 µM
COc1ccc(-c2ccc(OC)cc2-c2ccc3cc(-c4nc5cc(C(=O)O)ccc5n4C4CCCCC4)ccc3n2)cc1 | NS5B polymerase | 100 µM | inhibition | Hepatitis C virus | 99.12%
O=C(O)c1sc(-c2ccccc2)cc1NS(=O)(=O)c1ccc(F)cc1C(F)(F)F | NS3 ATPase |  | IC50 | Hepatitis C virus | 5–20 µM
O=C(O)CCNC(=O)c1ccc2c(c1)nc(-c1ccc3ncc(-c4ccccc4)cc3c1)n2C1CCCCC1 | NS5B polymerase | 33 µM | inhibition | Hepatitis C virus | 49.12%
COc1nc(Nc2ccc3[nH]ncc3c2)nc(N2CCC(C(N)=O)CC2)n1 | DNA polymerase |  | IC50 | Hepatitis B virus | 0.1–1 µg/mL
O=C(O)c1cnn2c(-c3cccc(-c4ccsc4)c3)ccnc12 | RNA-dependent RNA polymerase |  | IC50 | Hepatitis C virus | >10 µM
Cc1ccc2c(c1)C(=O)N=C2N(c1cc(-c2ccccc2)sc1C(=O)O)C(C)C | NS3 ATPase |  | IC50 | Hepatitis C virus | 5–20 µM
CNC(=O)c1c(-c2ccc(F)cc2)oc2ccc(OC(C)C)c(N(Cc3ccccc3)S(C)(=O)=O)c12 | Nonstructural protein 5B |  | IC50 | Hepatitis C virus | ≤0.5 µM
O=C(O)c1cc2nc(-c3ccc(Cl)cc3)cc(-c3ccccc3)n2n1 | RNA-dependent RNA polymerase |  | IC50 | Hepatitis C virus | >10 µM
CCCCCC(=O)N(CC)c1cc(-c2ccccc2)sc1C(=O)O | NS3 ATPase |  | IC50 | Hepatitis C virus | <5 µM
CON1C(Nc2ccc3cn[nH]c3c2)=NC(NC(C)C)=NC1NC(C)C | DNA polymerase | 0.01 µg/mL | inhibition | Hepatitis B virus | 39%
O=C(Nc1ccsc1-c1nc(C(=O)O)c(O)c(=O)[nH]1)OCC1CCCCC1 | HCV polymerase |  | IC50 | Hepatitis C virus | <25 µM
COC(=O)c1cc2ncc(-c3ccc(OCc4ccccc4)cc3)c(C3CCCCC3)n2n1 | RNA-dependent RNA polymerase |  | IC50 | Hepatitis C virus | >10 µM
Cc1ccc(S(=O)(=O)Nc2cc(-c3ccccc3)sc2C(=O)O)cc1C | NS3 ATPase |  | IC50 | Hepatitis C virus | <5 µM
O=C(O)c1ccc2c(c1)nc(-c1ccc3nc(-c4ccccc4)cc(Oc4ccccc4)c3c1)n2C1CCCCC1 | NS5B polymerase | 100 µM | inhibition | Hepatitis C virus | 101%
CC[C@@H](C=O)NC(=O)[C@@H]1C[C@@H](OCc2ccc(OCc3ccccc3)c(OCc3ccccc3)c2)CN1C(=O)[C@@H](NC(=O)[C@@H](NC(=O)c1cnccn1)C(C)C)C(C)C | NS3 protease |  | Ki | Hepatitis C virus | 1–100 µM
Cc1ccccc1S(=O)(=O)Nc1cc(-c2ccccc2C(F)(F)F)sc1C(=O)O | NS3 ATPase |  | IC50 | Hepatitis C virus | 5–20 µM
O=C(O)c1nc(-c2sccc2NC(=O)C(NC2CCCC2)c2ccccc2)[nH]c(=O)c1O | HCV polymerase |  | IC50 | Hepatitis C virus | <25 µM
COc1nc(Nc2ccc3[nH]ncc3c2)nc(N2CCCC2)n1 | Nonstructural protein 5B | 1 µg/mL | inhibition | Hepatitis C virus | 40%
CC[C@@H](C=O)NC(=O)[C@@H]1C[C@@H](OC(=O)Nc2cccc(C(C)=O)c2)CN1C(=O)[C@@H](NC(=O)[C@@H](NC(=O)c1cnccn1)C(C)C)C(C)C | NS3 protease |  | Ki | Hepatitis C virus | >100 µM
CC(C)(C)OC(=O)NCc1ccccc1COC(=O)Nc1ccsc1-c1nc(C(=O)O)c(O)c(=O)[nH]1 | HCV polymerase |  | IC50 | Hepatitis C virus | <25 µM
COc1ccc(-c2ccc(Cl)cc2)c(-c2ccc3cc(-c4nc5cc(C(=O)O)cnc5n4C4CCCCC4)ccc3n2)c1 | NS5B polymerase | 100 µM | inhibition | Hepatitis C virus | 99.76%

A second listing of 5 rows from above:

compound | target | tested at | endpoint | organism | value
CC[C@H](NC(=O)[C@H](CC(C)C)NC(=O)[C@@H](NC(=O)[C@@H](NC(=O)[C@H](CC(=O)O)CC(=O)[C@H](CCC(=O)O)NC(C)=O)C(C)C)C(C)C)C(=O)C(=O)NCc1ccccc1 | NS3 protease |  | Ki | Hepatitis C virus | <1 µM
COc1nc(Nc2ccc3[nH]ncc3c2)nc(N2CCCC2)n1 | Nonstructural protein 5B | 1 µg/mL | inhibition | Hepatitis C virus | 40%
Cc1ccc(S(=O)(=O)Nc2cc(-c3ccccc3)sc2C(=O)O)cc1C | NS3 ATPase |  | IC50 | Hepatitis C virus | <5 µM
O=C(O)c1nc(-c2ccc(Br)cc2)[nH]c(=O)c1O | HCV polymerase |  | IC50 | Hepatitis C virus | <100 µM
CNC(=O)c1c(-c2ccc(F)cc2)oc2cc(N(C3CCC3)S(C)(=O)=O)c(OC(C)C)cc12 | Nonstructural protein 5B |  | IC50 | Hepatitis C virus | ≤0.5 µM